What follows are molecules tested on monoclonal antibody KTM-240 (assay: competitive ELISA, specificity of antibody KTM-240). Details: relative reactivity based on the reactivity with the substance most reactive expressed as 1.
For `CC(=O)OC[C@]12[C@H](OC(C)=O)C(=O)C(C)=C[C@H]1O[C@@H]1[C@H](OC(C)=O)C[C@@]2(C)[C@]12CO2`, the “Reactivity of Antibodies KTM-240” value was 0.04. `CC(=O)OC[C@]12C[C@H](OC(=O)CC(C)C)C(C)=C[C@H]1O[C@@H]1[C@H](OC(C)=O)[C@@H](OC(C)=O)[C@@]2(C)[C@]12CO2` was tested, and the “Reactivity of Antibodies KTM-240” value was “-”. For `CC(=O)O[C@@H]1[C@@H](O)[C@H]2O[C@@H]3C=C(C)C(=O)[C@@H](O)[C@]3(CO)[C@]1(C)[C@]21CO1`, the “Reactivity of Antibodies KTM-240” value was “-”. For `CC(=O)OC[C@]12[C@H](O)C(=O)C(C)=C[C@H]1O[C@@H]1[C@H](O)C[C@@]2(C)[C@]12CO2`, the “Reactivity of Antibodies KTM-240” value was 0.02. In the case of `CC(=O)O[C@@H]1C[C@]2(C)[C@@]3(CO)[C@H](O)C(=O)C(C)=C[C@H]3O[C@H]1[C@@]21CO1`, the “Reactivity of Antibodies KTM-240” value is reported as “-”. With `CC(=O)OC[C@]12[C@H](OC(C)=O)C(=O)C(C)=C[C@H]1O[C@@H]1[C@H](OC(C)=O)[C@@H](OC(C)=O)[C@@]2(C)[C@]12CO2` the “Reactivity of Antibodies KTM-240” value was <0.01. For T-2 toxin, the “Reactivity of Antibodies KTM-240” value was “-”. For `CC(=O)OC[C@]12[C@H](O)C(=O)C(C)=C[C@H]1O[C@@H]1[C@H](O)[C@@H](OC(C)=O)[C@@]2(C)[C@]12CO2`, the “Reactivity of Antibodies KTM-240” value was 0.02. With `CC(=O)OC[C@]12C[C@H](OC(=O)CC(C)C)C(C)=C[C@H]1O[C@@H]1[C@H](O)[C@@H](O)[C@@]2(C)[C@]12CO2` the “Reactivity of Antibodies KTM-240” value was “-”. In the case of `CC1=C[C@H]2O[C@@H]3[C@H](O)C[C@](C)([C@@]2(CO)[C@H](O)C1=O)[C@]31CO1`, the “Reactivity of Antibodies KTM-240” value is reported as “-”. For `CC1=C[C@H]2O[C@@H]3[C@H](O)[C@@H](O)[C@](C)([C@@]2(CO)[C@H](O)C1=O)[C@]31CO1`, the “Reactivity of Antibodies KTM-240” value was “-”. `CC(=O)OC[C@]12[C@H](O)C(=O)C(C)=C[C@H]1O[C@@H]1[C@H](OC(C)=O)[C@@H](OC(C)=O)[C@@]2(C)[C@]12CO2` was tested, and the “Reactivity of Antibodies KTM-240” value was 1.00. `CC(=O)OC[C@]12[C@H](O)C(=O)C(C)=C[C@H]1O[C@@H]1[C@H](OC(C)=O)C[C@@]2(C)[C@]12CO2` was tested, and the “Reactivity of Antibodies KTM-240” value was 1.00. With `CC(=O)O[C@@H]1[C@@H](OC(C)=O)[C@]2(C)[C@@]3(CO)[C@H](O)C(=O)C(C)=C[C@H]3O[C@H]1[C@@]21CO1` the “Reactivity of Antibodies KTM-240” value was <0.01. In the case of `CC(=O)OC[C@]12[C@H](OC(C)=O)C(=O)C(C)=C[C@H]1O[C@@H]1[C@H](O)[C@@H](OC(C)=O)[C@@]2(C)[C@]12CO2`, the “Reactivity of Antibodies KTM-240” value is reported as “-”.

The molecules below were run on monoclonal antibody KTM-249 (assay: competitive ELISA, specificity of antibody KTM-249). Details: relative reactivity based on the reactivity with the substance most reactive expressed as 1.
For `CC(=O)OC[C@]12[C@H](OC(C)=O)C(=O)C(C)=C[C@H]1O[C@@H]1[C@H](OC(C)=O)C[C@@]2(C)[C@]12CO2`, the “Reactivity of Antibodies KTM-249” value was “-”. For `CC(=O)OC[C@]12C[C@H](OC(=O)CC(C)C)C(C)=C[C@H]1O[C@@H]1[C@H](OC(C)=O)[C@@H](OC(C)=O)[C@@]2(C)[C@]12CO2`, the “Reactivity of Antibodies KTM-249” value was 0.78. For `CC(=O)O[C@@H]1[C@@H](O)[C@H]2O[C@@H]3C=C(C)C(=O)[C@@H](O)[C@]3(CO)[C@]1(C)[C@]21CO1`, the “Reactivity of Antibodies KTM-249” value was “-”. With `CC(=O)OC[C@]12[C@H](O)C(=O)C(C)=C[C@H]1O[C@@H]1[C@H](O)C[C@@]2(C)[C@]12CO2` the “Reactivity of Antibodies KTM-249” value was “-”. For `CC(=O)O[C@@H]1C[C@]2(C)[C@@]3(CO)[C@H](O)C(=O)C(C)=C[C@H]3O[C@H]1[C@@]21CO1`, the “Reactivity of Antibodies KTM-249” value was “-”. `CC(=O)OC[C@]12[C@H](OC(C)=O)C(=O)C(C)=C[C@H]1O[C@@H]1[C@H](OC(C)=O)[C@@H](OC(C)=O)[C@@]2(C)[C@]12CO2` was tested, and the “Reactivity of Antibodies KTM-249” value was “-”. For T-2 toxin, the “Reactivity of Antibodies KTM-249” value was 1.00. In the case of `CC(=O)OC[C@]12[C@H](O)C(=O)C(C)=C[C@H]1O[C@@H]1[C@H](O)[C@@H](OC(C)=O)[C@@]2(C)[C@]12CO2`, the “Reactivity of Antibodies KTM-249” value is reported as “-”. `CC(=O)OC[C@]12C[C@H](OC(=O)CC(C)C)C(C)=C[C@H]1O[C@@H]1[C@H](O)[C@@H](O)[C@@]2(C)[C@]12CO2` was tested, and the “Reactivity of Antibodies KTM-249” value was 1.00. For `CC1=C[C@H]2O[C@@H]3[C@H](O)C[C@](C)([C@@]2(CO)[C@H](O)C1=O)[C@]31CO1`, the “Reactivity of Antibodies KTM-249” value was “-”. With `CC1=C[C@H]2O[C@@H]3[C@H](O)[C@@H](O)[C@](C)([C@@]2(CO)[C@H](O)C1=O)[C@]31CO1` the “Reactivity of Antibodies KTM-249” value was “-”. In the case of `CC(=O)OC[C@]12[C@H](O)C(=O)C(C)=C[C@H]1O[C@@H]1[C@H](OC(C)=O)[C@@H](OC(C)=O)[C@@]2(C)[C@]12CO2`, the “Reactivity of Antibodies KTM-249” value is reported as “-”. For `CC(=O)OC[C@]12[C@H](O)C(=O)C(C)=C[C@H]1O[C@@H]1[C@H](OC(C)=O)C[C@@]2(C)[C@]12CO2`, the “Reactivity of Antibodies KTM-249” value was “-”. `CC(=O)O[C@@H]1[C@@H](OC(C)=O)[C@]2(C)[C@@]3(CO)[C@H](O)C(=O)C(C)=C[C@H]3O[C@H]1[C@@]21CO1` was tested, and the “Reactivity of Antibodies KTM-249” value was “-”. With `CC(=O)OC[C@]12[C@H](OC(C)=O)C(=O)C(C)=C[C@H]1O[C@@H]1[C@H](O)[C@@H](OC(C)=O)[C@@]2(C)[C@]12CO2` the “Reactivity of Antibodies KTM-249” value was “-”.

These molecules were tested on monoclonal antibody KTM-205 (assay: competitive ELISA, specificity of antibody KTM-205). Details: relative reactivity based on the reactivity with the substance most reactive expressed as 1.
`CC(=O)OC[C@]12[C@H](OC(C)=O)C(=O)C(C)=C[C@H]1O[C@@H]1[C@H](OC(C)=O)C[C@@]2(C)[C@]12CO2` was tested, and the “Reactivity of Antibodies KTM-205” value was “-”. `CC(=O)OC[C@]12C[C@H](OC(=O)CC(C)C)C(C)=C[C@H]1O[C@@H]1[C@H](OC(C)=O)[C@@H](OC(C)=O)[C@@]2(C)[C@]12CO2` was tested, and the “Reactivity of Antibodies KTM-205” value was “-”. `CC(=O)O[C@@H]1[C@@H](O)[C@H]2O[C@@H]3C=C(C)C(=O)[C@@H](O)[C@]3(CO)[C@]1(C)[C@]21CO1` was tested, and the “Reactivity of Antibodies KTM-205” value was <0.01. For `CC(=O)OC[C@]12[C@H](O)C(=O)C(C)=C[C@H]1O[C@@H]1[C@H](O)C[C@@]2(C)[C@]12CO2`, the “Reactivity of Antibodies KTM-205” value was “-”. With `CC(=O)O[C@@H]1C[C@]2(C)[C@@]3(CO)[C@H](O)C(=O)C(C)=C[C@H]3O[C@H]1[C@@]21CO1` the “Reactivity of Antibodies KTM-205” value was “-”. `CC(=O)OC[C@]12[C@H](OC(C)=O)C(=O)C(C)=C[C@H]1O[C@@H]1[C@H](OC(C)=O)[C@@H](OC(C)=O)[C@@]2(C)[C@]12CO2` was tested, and the “Reactivity of Antibodies KTM-205” value was <0.01. T-2 toxin was tested, and the “Reactivity of Antibodies KTM-205” value was “-”. `CC(=O)OC[C@]12[C@H](O)C(=O)C(C)=C[C@H]1O[C@@H]1[C@H](O)[C@@H](OC(C)=O)[C@@]2(C)[C@]12CO2` was tested, and the “Reactivity of Antibodies KTM-205” value was 0.02. For `CC(=O)OC[C@]12C[C@H](OC(=O)CC(C)C)C(C)=C[C@H]1O[C@@H]1[C@H](O)[C@@H](O)[C@@]2(C)[C@]12CO2`, the “Reactivity of Antibodies KTM-205” value was “-”. In the case of `CC1=C[C@H]2O[C@@H]3[C@H](O)C[C@](C)([C@@]2(CO)[C@H](O)C1=O)[C@]31CO1`, the “Reactivity of Antibodies KTM-205” value is reported as “-”. In the case of `CC1=C[C@H]2O[C@@H]3[C@H](O)[C@@H](O)[C@](C)([C@@]2(CO)[C@H](O)C1=O)[C@]31CO1`, the “Reactivity of Antibodies KTM-205” value is reported as “-*”. With `CC(=O)OC[C@]12[C@H](O)C(=O)C(C)=C[C@H]1O[C@@H]1[C@H](OC(C)=O)[C@@H](OC(C)=O)[C@@]2(C)[C@]12CO2` the “Reactivity of Antibodies KTM-205” value was 1.00. For `CC(=O)OC[C@]12[C@H](O)C(=O)C(C)=C[C@H]1O[C@@H]1[C@H](OC(C)=O)C[C@@]2(C)[C@]12CO2`, the “Reactivity of Antibodies KTM-205” value was “-”. With `CC(=O)O[C@@H]1[C@@H](OC(C)=O)[C@]2(C)[C@@]3(CO)[C@H](O)C(=O)C(C)=C[C@H]3O[C@H]1[C@@]21CO1` the “Reactivity of Antibodies KTM-205” value was 0.01. For `CC(=O)OC[C@]12[C@H](OC(C)=O)C(=O)C(C)=C[C@H]1O[C@@H]1[C@H](O)[C@@H](OC(C)=O)[C@@]2(C)[C@]12CO2`, the “Reactivity of Antibodies KTM-205” value was <0.01.
